# How the values were obtained:
# [1] = Cooling tower field trial, Example 2: feed time and biocide consumption; conditions: for Consumption rate / Feed Time: slug dose 3 times/week to 0.5 ppm free Cl2; for Consumption rate: 14,000 gallon cooling tower; for Feed Time: cooling tower pH about 9.1; for total weight of biocide consumed over 30-day test period: slug dose three times a week to about 0.5 mg/L “free chlorine”
# [2] = HVAC/process cooling system field test, Example 4: feed time, residual, consumption, ORP; conditions: 16,000 gallon HVAC/process cooling system; for Halogen residual as free Cl2: pH 8.3 to 8.8
# [3] = Cooling tower field trial, Example 2: copper corrosion; conditions: slug dose 3 times/week, 0.5 ppm free Cl2
# [4] = Cooling tower field trial, Example 3: halogen residuals; conditions: cooling tower water; average of several analyses
Compound,Consumption rate [1],Feed Time [1],total weight of biocide consumed over 30-day test period [1],Typical ORP [2],Halogen residual as free Cl2 [2],Copper corrosion [3],free halogen residual (as Cl2) [4],total halogen residual (as Cl2) [4]
"CC1(C)C(=O)N(Cl)C(=O)N1Br [BCDMH, N,N′-bromochloro-5,5-dimethylhydantoin, reference compound]",25 lbs/month,1 to 5 h,25 lbs,400-500 mV,<0.3 ppm,0.34 mpy,,
"CC1(C)C(=O)N(Br)C(=O)N1Br [DBDMH, 1,3-dibromo-5,5-dimethylhydantoin]",7 lbs/month,<0.5 h,7 lbs,500-600 mV,>1.0 ppm,0.13 mpy,0.79 mg/L,0.82 mg/L

# Reference: patent US7579018B2, “Microbiological control in aqueous systems” (Albemarle Corporation, priority 2000, dated 2009)
